Test results taken from ChEMBL document CHEMBL1275563, “Genetic characterization of Vga ABC proteins conferring reduced susceptibility to pleuromutilins in Staphylococcus aureus” (2008).

System: Staphylococcus aureus
Settings: RN4220

Q: For GENTAMICIN, which MIC is on record?
A: The MIC was 0.5 µg/mL.
